Publication PMC5815094
pKd: −log10 of the molar value. The exact form of at least one protein or probe is not confirmed. For part of these data: A negative result means that nothing was seen under these conditions. For part of these data: At least one verdict was read from the data and is not stated in words by the source. For part of these data: Protein sequences can lack the tags named with them.

Experiments:
Hfq + Crc [1] = test: SEC-MALS; conditions: ES buffer, not 1:1:1 stoichiometry; ES buffer: 10 mM Tris pH 8.0, 10 mM KCl, 40 mM NaCl, 1 mM MgCl2; recombinant protein; label: 5'-32P (EMSA), 5'-6-FAM (Fig 6D), unlabelled (MST)
[2] = molecular target: T1, Crc (Pseudomonas aeruginosa PAO1) (UniProt Q51380); test: MST; conditions: 200 nM labelled Crc, no Hfq; ES buffer: 10 mM Tris pH 8.0, 10 mM KCl, 40 mM NaCl, 1 mM MgCl2; MST + 0.05% Tween-20, room temperature; recombinant protein; protein details: His6-tag (N-terminal) removed with HRV14-3C; label: 5'-32P (EMSA), 5'-6-FAM (Fig 6D), unlabelled (MST)
T1 sequence (looked up, limits assumed): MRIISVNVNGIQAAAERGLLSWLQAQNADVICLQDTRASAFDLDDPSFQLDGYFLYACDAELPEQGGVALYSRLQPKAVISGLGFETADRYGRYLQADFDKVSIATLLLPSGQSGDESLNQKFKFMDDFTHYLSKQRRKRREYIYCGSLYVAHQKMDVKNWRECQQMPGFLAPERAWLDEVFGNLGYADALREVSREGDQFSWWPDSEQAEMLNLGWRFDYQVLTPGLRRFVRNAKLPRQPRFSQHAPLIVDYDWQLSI

[3] = molecular target: Hfq (Pseudomonas aeruginosa PAO1) (UniProt Q9HUM0); test: EMSA dissociation (competition); conditions: 80 nM Hfq6, 100 nM unlabelled amiE6ARN, 15-120 s, no Crc; ES buffer: 10 mM Tris pH 8.0, 10 mM KCl, 40 mM NaCl, 1 mM MgCl2; EMSA + 25 ng tRNA per 10 ul, 37 C 15 min (Fig 6D); recombinant protein; label: 5'-32P (EMSA), 5'-6-FAM (Fig 6D), unlabelled (MST)
Hfq + Crc [4] = test: MST; conditions: Hfq titrated, 500 nM amiE6ARN and 1 uM Crc present; ES buffer: 10 mM Tris pH 8.0, 10 mM KCl, 40 mM NaCl, 1 mM MgCl2; MST + 0.05% Tween-20, room temperature; recombinant protein; label: 3'-pCp-Cy5 (MST, EMSA), unlabelled (co-IP); probe letters rebuilt from the primers and the genome
Hfq + Crc [5] = test: co-IP (anti-Hfq); conditions: no ternary complex: Crc not captured, Hfq-RNA binding not read out, ES buffer: 10 mM Tris pH 8.0, 10 mM KCl, 40 mM NaCl, 1 mM MgCl2, recombinant protein

AAAAAUAACAACAAGAGG [amiE6ARN]: binds (Hfq + Crc [1]); no binding [2]; binds [3].

For “GGACUGGUCGCGAGGCCAGCAGGUAAGCUGAGAGACCAAGCAGUCGGACUCUUCAGAUUAUCUCCUCAUCAGGCUAAUCACGGUUUCGACCCGGCACUUUGCCGGGUCUUUUUUUG [PrrF2 sRNA]”, the pKd (Hfq + Crc [4]) was 7.46 and the binding result (Hfq + Crc [5]; label: 3'-pCp-Cy5 (MST, EMSA), unlabelled (co-IP), probe letters rebuilt from the primers and the genome) was “no binding”.

UUUUUUUUUUUUUU [poly(U)14]: no binding (Hfq + Crc [5]).
